Measured values: publication doi:10.1101/2023.09.11.557219v1 (biorxiv, 2023)

Biological target: SARS-CoV-2 M^pro (main protease, 3CL^pro, NSP5) (Severe acute respiratory syndrome coronavirus 2, UniProt P0DTD1)
Experiment: fluorogenic substrate cleavage, Morrison fit
Assay type: biochemical
Settings: HEPES 25 mM pH 7.0, fluorogenic substrate SAE0180

Row | SMILES | Ki | Ki (competitive)
1 | O=C(NC12CC3CC(CC(C3)C1)C2)N1c2ccccc2Sc2ccccc21 | 64 µM | –
2 | O=C(NC1C2CC3CC(C2)CC1C3)N1c2ccccc2Sc2ccccc21 (stereo not drawn) | 51 µM | –
3 | CN(CCCNC(=O)N1c2ccccc2Sc2ccccc21)c1ccccc1 | – | 10 µM
